Compound potency records, mixed from different reports. Data source: NIAID ChemDB in PubChem.

An empty or dashed field is not shown. ICn is the concentration giving n% inhibition. CCn: concentration that lowers growth or viability of the cells by n%. Lines come from different laboratories, so protocols vary. ECn: concentration that inhibits the pathogen or its effect by n%.

SMILES,kind,protein,measure,cells,strain or isolate,species,value
Cn1c(O)c(N=NC(N)=S)c2ccccc21,culture,-,EC50,BSC,-,Monkeypox virus,141 µM
CN(C)CCNC(=O)[C@H](Cc1ccc(O)cc1)NC(=O)c1ccc2c(c1)nc(-c1ccoc1)n2C1CCCCC1,target,RNA-dependent RNA polymerase,IC50,-,-,Poliovirus,>25 µM
CCN(CCO)C(=O)C(NC(C)=O)[C@H]1CC(C(=O)O)C[C@@H]1N=C(N)N,target,Neuraminidase,IC50,-,-,Influenza A virus (H6N2),0.72 µM
O=C(O)c1ccc2c(c1)nc(-c1ccccn1)n2C1CCCC1,target,RNA-dependent RNA polymerase,IC50,-,-,Poliovirus,>25 µM
CC(=O)Nc1c(O)cc(C(=O)O)cc1[N+](=O)[O-],target,Neuraminidase,IC50,-,N2 (A/TOKYO/67),Influenza A virus,750 µM
Nc1nc2c(ncn2C[C@@H]2COP(=O)(O)CO2)c(=O)[nH]1,toxicity,-,CC50,PHK,-,-,13.6 µg/mL
Nc1nc([C@H](Cc2ccc(-c3nn[nH]n3)cc2)NC(=O)c2ccc3c(c2)nc(-c2ccoc2)n3C2CCCCC2)cs1,target,RNA-dependent RNA polymerase,IC50,-,-,Poliovirus,>25 µM
Nc1ncnc2c1ncn2C[C@H]1COP(=O)(O)CO1,toxicity,-,CC50,PHK,-,-,17.2 µg/mL
O=C(O)COc1ccc2[nH]cc(C[C@H](NC(=O)c3ccc4c(c3)nc(-c3ccccn3)n4C3CCCCC3)C(=O)O)c2c1,target,RNA-dependent RNA polymerase,IC50,-,-,Poliovirus,>25 µM
NC(=O)c1csc([C@@H]2O[C@H](CO)[C@@H](O)[C@H]2O)n1,culture,-,EC50,LLC-MK2,Asibi,Yellow fever virus,0.08 µg/mL
O=c1cnn([C@@H]2O[C@H](CO)[C@@H](O)[C@H]2O)c(=O)[nH]1,culture,-,EC50,3T3,-,Monkeypox virus,6.1 µM
CCC(CC)NC(=O)C(NC(C)=O)[C@H]1C[C@@H](C(=O)O)C[C@@H]1N=C(N)N,target,Neuraminidase,IC50,-,-,Influenza A virus (H6N2),3 µM
NC(=O)c1c[se]c([C@@H]2O[C@H](CO)[C@@H](O)[C@H]2O)n1,culture,-,EC50,VERO,HBL7990,Hantaan virus,1.6 µg/mL
Nc1nccc2c1ncn2C[C@H]1COP(=O)(O)CO1,toxicity,-,CC50,PHK,-,-,12.1 µg/mL
CC(=O)NC(C(=O)N1CCCCC1)[C@H]1CC(C(=O)O)C[C@@H]1N=C(N)N,target,Neuraminidase,IC50,-,-,Influenza A virus (H6N2),0.15 µM
CN(C)c1nc(N)nc2c1ncn2CCOCP(=O)(O)O,toxicity,-,CC50,PHK,-,-,1.5 µg/mL
Nc1ccn(C[C@H]2COP(=O)(O)CO2)c(=O)n1,culture,-,EC50,3T3,-,Camelpox virus,6.3 µM
O=C(O)c1ccc2[nH]cc(C[C@H](NC(=O)c3ccc4c(c3)nc(-c3ccoc3)n4C3CCCCC3)C(=O)O)c2c1,target,RNA-dependent RNA polymerase,IC50,-,-,Poliovirus,>25 µM
C#CCNc1nc(N)nc2c1ncn2CCOCP(=O)(O)O,toxicity,-,CC50,PHK,-,-,2.9 µg/mL
COC(=O)[C@H](Cc1c[nH]c2ccc(OCC(=O)O)cc12)NC(=O)c1ccc2c(c1)nc(-c1ccoc1)n2C(C)C,target,RNA-dependent RNA polymerase,IC50,-,-,Poliovirus,>25 µM
Nc1ccn(C[C@@H](CO)OCP(=O)(O)O)c(=O)n1,culture,-,EC50,VERO,-,Variola virus,6 µM
CC1(C)[C@@H](O[C@H]2O[C@H](C(=O)O)[C@@H](O)[C@H](O)[C@H]2O[C@@H]2O[C@H](C(=O)O)[C@@H](O)[C@H](O)[C@H]2O)CC[C@]2(C)[C@H]3C(=O)C=C4[C@@H]5C[C@@](C)(C(=O)O)CC[C@]5(C)CC[C@@]4(C)[C@]3(C)CC[C@@H]12,culture,-,EC90,VERO,17D,Yellow fever virus,530 µg/mL

For reference, 3 entries again:

SMILES	kind	protein	measure	cells	strain or isolate	species	value
CC(=O)NC(C(=O)N1CCCCC1)[C@H]1CC(C(=O)O)C[C@@H]1N=C(N)N	target	Neuraminidase	IC50	-	-	Influenza A virus (H6N2)	0.15 µM
Nc1nc2c(ncn2C[C@@H]2COP(=O)(O)CO2)c(=O)[nH]1	toxicity	-	CC50	PHK	-	-	13.6 µg/mL
Nc1ncnc2c1ncn2C[C@H]1COP(=O)(O)CO1	toxicity	-	CC50	PHK	-	-	17.2 µg/mL